According to US10028938B2, “Antiviral agents and uses thereof” (Griffith University, priority 2014, dated 2018):
Structures were worked out from names or drawings and are uncertain.

Amino acid sequences for entries named in this document (tags omitted).
UniProt P08492, whole entry: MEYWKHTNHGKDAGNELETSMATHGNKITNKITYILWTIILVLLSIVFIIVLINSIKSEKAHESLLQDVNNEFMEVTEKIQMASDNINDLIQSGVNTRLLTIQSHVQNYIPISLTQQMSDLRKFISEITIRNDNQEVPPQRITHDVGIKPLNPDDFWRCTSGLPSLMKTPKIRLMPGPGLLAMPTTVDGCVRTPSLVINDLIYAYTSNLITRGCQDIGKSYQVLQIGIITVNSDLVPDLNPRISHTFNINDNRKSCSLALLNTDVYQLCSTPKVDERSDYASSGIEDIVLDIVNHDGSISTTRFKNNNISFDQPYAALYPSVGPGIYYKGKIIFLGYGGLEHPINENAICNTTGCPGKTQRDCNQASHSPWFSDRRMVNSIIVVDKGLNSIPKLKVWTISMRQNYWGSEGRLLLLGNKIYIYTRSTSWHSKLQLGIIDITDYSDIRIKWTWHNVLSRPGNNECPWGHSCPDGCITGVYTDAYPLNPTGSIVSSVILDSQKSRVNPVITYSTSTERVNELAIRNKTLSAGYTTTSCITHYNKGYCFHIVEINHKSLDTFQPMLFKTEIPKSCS

Columns and labels:
[1] = target: hPIV-3 HN (Human parainfluenza 3 virus, UniProt P08492); assay: Neuraminidase inhibition (NI) assay with purified hPIV-3 and MUN substrate; settings: read-out: NI hPIV-3 IC50; tested form: Na salt
[2] = system: hPIV-3; assay: In situ ELISA virus growth inhibition; settings: read-out: Cell-based ELISA IC50, Table 4, A549 cells, tested form: Na salt

Row | SMILES | IC50 [1] [µM] | IC50 [2] [µM]
1 | COCc1cn([C@H]2C=C(C(=O)O)O[C@@H]([C@H](O)[C@H](O)CO)[C@@H]2NC(=O)C(C)C)nn1 [Compound 9, Sodium 2,6-anhydro-3,4,5-trideoxy-5-isobutyramido-4-(4-methoxymethyl-[1,2,3,]triazol-1-yl)-D-glycero-D-galacto-non-2-enonate] | 12 | 80
2 | CC(C)C(=O)N[C@H]1[C@H]([C@H](O)[C@H](O)CO)OC(C(=O)[O-])=C[C@@H]1n1cc(-c2ccccc2)nn1.[Na+] [Compound 10, Sodium 2,6-anhydro-3,4,5-trideoxy-5-isobutyramido-4-(4-phenyl-[1,2,3,]triazol-1-yl)-D-glycero-D-galacto-non-2-enonate] | 2.5 | 10
